Results of unrelated studies side by side (data: NIAID ChemDB).

Shared fields: tests on isolated targets; organism: HIV; target: Reverse transcriptase

ICn: concentration for n% inhibition. Fold resistance has wild type as its base. An empty or dashed field is not shown. Percent inhibition refers to the dose given; in toxicity tests it is the harm to the cells. Conditions beyond the fields shown may differ between rows.

compound	read-out	read by	tested at	mutations	value
NS(=O)(=O)c1ccc(CCNC(=O)Cc2cccs2)cc1	IC50	nucleotide incorporation	-	K103N/L1001	5.8 µM
Cc1c(C(C)c2c(F)cccc2F)nc(NC2CCCC2)[nH]c1=O	IC50	nucleotide incorporation / radiometric	-	RT-L100I	0.5 µM
Cc1cn([C@H]2C=C[C@@H](COP(=O)(O)OP(=O)(O)OP(=O)(O)O)O2)c(=O)[nH]c1=O	fold resistance	nucleotide incorporation / radiometric	-	RT-N137Q	1.26
CO[P@](=O)(c1cc(C)cc(/C=C/C#N)c1)c1c(C(N)=O)[nH]c2ccc(Cl)c(F)c12	IC50	-	-	Y188L	1.25 µM
COc1ccc2c(c1)N(C(=O)OC(C)C)[C@@H](CSC)C(=S)N2	fold resistance	RT activity	-	RT-D67N K70R T215F K219Q	1
Nc1nc2c(ncn2[C@H]2CC[C@@H](COP(=O)(O)OP(=O)(O)OP(=O)(O)O)O2)c(=O)[nH]1	IC50	nucleotide incorporation / radiometric	-	RT-N137H	0.7 µM
Nc1nc2c(ncn2[C@H]2CC[C@@H](COP(=O)(O)OP(=O)(O)OP(=O)(O)O)O2)c(=O)[nH]1	IC50	nucleotide incorporation	-	RT-Y181I	0.06 µM
c1ccc(C2SCc3nc4ccccc4n32)cc1	fold resistance	-	-	RT-Y181I Y188L	>2
Cc1cn([C@@H]2O[C@H](CO[Si](C)(C)C(C)(C)C)C3(OS(=O)(=O)C=C3N)[C@H]2O[Si](C)(C)C(C)(C)C)c(=O)n(C)c1=O	fold resistance	nucleotide incorporation	-	RT-Y181I	>183
Cc1cn([C@@H]2O[C@H](CO[Si](C)(C)C(C)(C)C)[C@@]3(OS(=O)(=O)C=C3N)[C@H]2O[Si](C)(C)C(C)(C)C)c(=O)[nH]c1=O	inhibition	nucleotide incorporation	150 µM	RT-E138K	30%
CC(C)=CCN1Cc2cccc3[nH]c(=S)n(c23)C[C@@H]1C	fold resistance	-	-	RT-E138K(P51 ONLY)	2.17
CC(C)=CCOc1cc(NC(=S)c2ccoc2C)ccc1Cl	fold resistance	nucleotide incorporation / radiometric	-	RT-P95A	0.13
Cc1cn([C@@H]2O[C@H](CO[Si](C)(C)C(C)(C)C)C3(OS(=O)(=O)C=C3N)[C@H]2O[Si](C)(C)C(C)(C)C)c(=O)n(C)c1=O	fold resistance	-	-	RT-E138K(P66 ONLY)	1
CC(C)Nc1cccnc1N1CCN(C(=O)c2cc3ccccc3[nH]2)CC1	fold resistance	nucleotide incorporation	-	RT-Y181I	89.7

The last 2 rows once more:

{"compound": "Cc1cn([C@@H]2O[C@H](CO[Si](C)(C)C(C)(C)C)C3(OS(=O)(=O)C=C3N)[C@H]2O[Si](C)(C)C(C)(C)C)c(=O)n(C)c1=O", "read-out": "fold resistance", "mutations": "RT-E138K(P66 ONLY)", "value": "1"}
{"compound": "CC(C)Nc1cccnc1N1CCN(C(=O)c2cc3ccccc3[nH]2)CC1", "read-out": "fold resistance", "read by": "nucleotide incorporation", "mutations": "RT-Y181I", "value": "89.7"}